For 2 molecules, EC90 and IC50 results are on record in article PMC3840871.

Values joined by “and” are separate entries in the source; they are usually repeats but may differ in a detail not shown here. Equal entries are not always repeated.

Experiment [1] concerns A/dk/VN/NCVD-680/2011 (wildtype NA) in MDCK-SIAT1 cells.
Experiment [2] addresses NA of clade 1.1 HPAI A(H5N1) viruses (Influenza A virus, UniProt Q6DPL2).
The target in experiment [3] is NA of clade 2.3.4 HPAI A(H5N1) viruses (Influenza A virus, UniProt I6PZ30).
Experiment [4] has as its target NA of 2.3.4/R reassortant HPAI A(H5N1) viruses (NA genes grouped with clade 2.3.2.1) (Influenza A virus, UniProt A0A0C5AM80).
Experiment [5] has as its target NA of A/Vietnam/1203/2004, clade 1 (Influenza A virus, UniProt Q6DPL2).
Experiment [6] concerns the target NA of A/North Carolina/39/2009 (H275Y) (Influenza A virus, UniProt C3W6G3, H275Y).
Experiment [7] has as its target NA of A/California/07/2009 (Influenza A virus (A/California/07/2009(H1N1)), UniProt C3W6G3).

Consider `NC(=O)c1nc(F)c[nH]c1=O`, for which the EC90 in experiment [1] is 3200 nM.
peramivir: the IC50 in experiment [2] was 0.07 nM to 0.31 nM (2×) and 0.13 nM and 0.14 nM; in experiment [3], 0.16 nM to 0.52 nM (2×) and 0.29 nM and 0.31 nM; in experiment [4], 0.28 nM to 0.39 nM (2×) and 0.33 nM; in experiment [5], 0.17 nM; in experiment [6], 16.8 nM; in experiment [7], 0.05 nM.
